According to patent US20250073344A1:

Biological target: interleukin 13 receptor α 2 (IL13Rα2) (human) (UniProt Q14627)
Experiment: cell-based or functional assay

With cmIL13 (IL13.E13K-PE4E) the IC50, CellTiter-Glo cell viability, 72 h, GBM6 cells (IL-13Rα2-medium) was 0.12 ng/mL, the IC50, CellTiter-Glo cell viability, 72 h, GBM10 cells (IL-13Rα2-high) was 0.58 ng/mL and the IC50, CellTiter-Glo cell viability, 72 h, GBM14 cells (IL-13Rα2-high) was 0.06 ng/mL. For the same substance, the IC50, CellTiter-Glo cell viability, 72 h, GBM39 cells (IL-13Rα2-low) was 53.8 ng/mL, the IC50, CellTiter-Glo cell viability, 72 h, GBM43 cells (IL-13Rα2-medium) was 9.08 ng/mL and the IC50, CellTiter-Glo cell viability, 72 h, GBM108 cells (IL-13Rα2-low) was 15.7 ng/mL. For the same substance, the IC50, CellTiter-Glo cell viability, 72 h, PED17 cells (IL-13Rα2-high) was 0.02 ng/mL, the IC50, CellTiter-Glo cell viability, 72 h, SF8628-B23 cells (IL-13Rα2-medium) was 0.81 ng/mL and the IC50, CellTiter-Glo cell viability, 72 h, SF8628 cells (IL-13Rα2-medium) was 0.1 ng/mL. The IC50, CellTiter-Glo cell viability, 72 h, SU-DIPG XIII-P cells (IL-13Rα2-low) was 10.6 ng/mL and the IC50, CellTiter-Glo cell viability, 72 h, SU-DIPG XVII cells (IL-13Rα2-medium) was 0.75 ng/mL.
